# Record: PubChem BioAssay AID504761 (Drosophila RNAi Screening Center, 2011)
# Purpose: 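Insect host genes that dengue virus relies on to spread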 (primary screen)
# Cells: D.Mel-2 cells from Drosophila
# Reagents: long dsRNA against Drosophila genes
# Treatment: infection with dengue virus type 2; dose and infection time not stated
# Measured: 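Cells stained for dengue envelope protein and imaged; percent of infected cells per well on duplicate plates, ranked by infection, with stained nuclei counted for cell number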
# Scale: infection score: higher = more virus-infected cells; cell count: higher = more cells in the well
# Rule for the call: 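Low infection ranks in the two replicates (chance level up to 0.065) followed by a retest with a 1.5-fold or larger significant decrease, p below 0.05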
# Calls: active = confirmed: knock-down lowers infection; inactive = not picked or not confirmed
# The screen tested about 22,000 reagents; below is an unselected part of those with a known target gene and a result. In the full data, 116 (0.52%) are marked active. 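Calls depend on retest data that are not deposited; infection was ranked per plate without normalising between plates; the unit of the infection score is not given.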 Raw values vary from plate to plate and are shown uncorrected. Names joined by + are all predicted targets of the reagent. Not given: the amount of reagent, the time to read-out.
gene,amplicon,"infection score, replicate 1","infection score, replicate 2","cell count, replicate 1","cell count, replicate 2",outcome
CG4806,DRSC04491,12.8,6.53,6243,6386,inactive
CG15715,DRSC10216,0.56,0.81,6117,6318,inactive
CG15715,DRSC25332,10.8,11.9,6523,6376,inactive
CG5897,DRSC10555,1.48,3.87,6221,6540,inactive
CG7551,DRSC10876,0.49,2.78,6295,6403,inactive
Shark (SH2 ankyrin repeat kinase),DRSC07680,12.2,15.7,6372,6279,inactive
Shark (SH2 ankyrin repeat kinase),DRSC28527,14.4,10.1,6165,4892,inactive
Awh (Arrowhead),DRSC08140,0.56,2.42,6461,6209,inactive
Nt5a (5' nucleotidase A),DRSC08561,6.06,11.3,6405,4267,inactive
pnut (peanut),DRSC07666,4.43,7.97,5824,6423,inactive
pnut (peanut),DRSC23971,2.09,3.5,6320,6198,inactive
Arp2 (Actin-related protein 2),DRSC19332,10.9,7.35,6387,5970,inactive
Bx42,DRSC17743,17.1,33.1,1536,1614,inactive
Bx42,DRSC27666,30.4,33.3,2852,6080,inactive
sfl (sulfateless),DRSC08828,0.55,0.2,6048,5987,inactive
sfl (sulfateless),DRSC08830,0.37,0.26,5634,5698,inactive
sfl (sulfateless),DRSC25916,1.55,1.99,6073,5841,inactive
Megf8 (Multiple EGF like domains 8),DRSC03058,1.34,1.22,6414,6255,inactive
SelG (Selenoprotein G),DRSC19808,3.51,6.74,6554,6617,inactive
SelG (Selenoprotein G),DRSC25206,1.53,5.13,6398,6065,inactive
CG8136,DRSC16385,1.84,7.2,6455,6615,inactive
CG8136,DRSC28135,3.17,11.2,6709,5154,inactive
Rchy1 (Ring finger and CHY zinc finger domain containing 1),DRSC23118,0.66,1.14,6027,6223,inactive
Rchy1 (Ring finger and CHY zinc finger domain containing 1),DRSC26775,2.54,7.03,6307,6654,inactive
CG14135,DRSC10140,1.22,2.83,6043,6437,inactive
Ptp99A (Protein tyrosine phosphatase 99A),DRSC13939,2.19,1.96,6199,6277,inactive
Ptp99A (Protein tyrosine phosphatase 99A),DRSC14319,21.4,0.26,4451,384,inactive
Ptp99A (Protein tyrosine phosphatase 99A),DRSC14320,15.1,7,5255,2841,inactive
Ptp99A (Protein tyrosine phosphatase 99A),DRSC16803,4.61,6.35,3557,6443,inactive
Ptp99A (Protein tyrosine phosphatase 99A),DRSC22125,1.4,4.15,6428,6971,inactive
Ptp99A (Protein tyrosine phosphatase 99A),DRSC22477,3.77,14.4,6125,5420,inactive
Ptp99A (Protein tyrosine phosphatase 99A),DRSC23033,2.6,3.54,6425,6702,inactive
Vmat + CG13330,DRSC06365,17.1,17.4,6339,6452,inactive
Vmat + CG13330,DRSC28600,16.6,18.2,5233,5015,inactive
nmd (no mitochondrial derivative),DRSC02856,2.07,16.4,7013,6034,inactive
nmd (no mitochondrial derivative),DRSC27985,3.2,27.2,6664,5495,inactive
CG13461,DRSC10008,1.71,2.27,5903,6534,inactive
CG13461,DRSC24462,4.77,9.37,6461,6583,inactive
dgt1 (dim gamma-tubulin 1),DRSC15301,8.32,4.9,841,6382,inactive
Grl36a (Gustatory receptor-like 36a),DRSC21748,15.2,5.96,6261,6474,inactive
Snr1 (Snf5-related 1),DRSC12369,2.18,1.75,4918,4804,inactive
Uros1 (Uroporphyrinogen III synthase 1),DRSC18191,4.55,1.43,6461,6424,inactive
Uros1 (Uroporphyrinogen III synthase 1),DRSC29316,,,370,359,inactive
Obp99a (Odorant-binding protein 99a),DRSC15303,5.48,,1769,387,inactive
CG7102,DRSC02647,6.24,2.81,6268,6629,inactive
CG7102,DRSC03007,6.72,0.23,7206,856,inactive
CG5024,DRSC15698,0.17,1.22,6388,6573,inactive
CG14454,DRSC11711,5.34,2.56,6764,6480,inactive
CG14454,DRSC23866,10.6,11.8,5283,4786,inactive
CG15443,DRSC00455,2.55,1.31,6313,6946,inactive
pcx (pecanex),DRSC18186,6.39,1.34,2034,6643,inactive
pcx (pecanex),DRSC18187,10.7,1.88,6137,6585,inactive
pcx (pecanex),DRSC18188,4.86,2.45,6332,6738,inactive
pcx (pecanex),DRSC18189,7.6,2.41,6656,6311,inactive
pcx (pecanex),DRSC18190,1.29,4.85,6507,6099,inactive
pcx (pecanex),DRSC18816,4.29,1.86,6298,6127,inactive
Rh4 (Rhodopsin 4),DRSC11268,1.36,13.7,6493,6881,inactive
Rh4 (Rhodopsin 4),DRSC27381,37.3,44.5,6658,5602,inactive
